Experimental data published in patent US7345026B2, “Hybrid or chimeric polynucleotides, proteins, and compositions comprising hepatitis B virus sequences” (Institut Pasteur, priority 1999, dated 2008).

Tests used:
[1] = system: peptide-loaded HHD-transfected RMA-S cells; conditions: HHD mice injected with pCMV-B10 DNA encoding the 10-epitope melanoma polyepitope; restimulation by each epitopic peptide
[2] = system: HHD-transfected RMA-S cells loaded with relevant peptides; test: CTL responses of HHD mice injected s.c. with peptide in IFA (51Cr-release assay); type: in vivo; conditions: peptide s.c. in IFA 7 days before, responder = at least 10% specific lysis
[3] = system: HHD-transfected RMA-S target cells loaded with relevant peptides; test: CTL responses of HHD mice co-immunized in IFA with HBVc.128 helper peptide; type: in vivo
[4] = system: HHD-transfected RMA-S cells loaded with relevant peptides; conditions: A2A2Kb mice; peptide s.c. in IFA 7 days before; responder = at least 10% specific lysis

FLWGPRALV
CTL response against the epitope after polyepitope immunization (in words) [1]: No specific lysis | R/T (responder versus tested mice) [2]: 1/6 | R/T (responder versus tested mice) ([3]; CD8 epitopic (50 μg) and HBVc.128 helper (140 μg) peptides s.c. in IFA 7 days before): 6/6 | CTL response when co-injected with helper peptide (in words) ([3]; co-injected with HBVc.128 helper peptide, compared with peptide alone): good CTL responses in a large proportion of mice | R/T (responder versus tested mice) [4]: 0/6

Where two headings read alike, the source gives them in different places.
